Results as given in patent publication US6602296B1, “Chemical supplementation of bone” (The University of Western Australia, priority 1997, dated 2003).
“Also recorded” adds a separate entry of the source.

Columns and labels:
[1] = Antibiotic iontophoresis in sheep tibia, antibiotic concentration in bone samples; settings: for movement of ions through sheep cortex: 1% solution
Procedure: Quantitative analysis was then carried out to test iontophoresis as a means of antibiotic delivery in allograft bone. Specimens of sheep tibia were prepared as described above. […] A potential difference of 100 volts was applied for 1 minute, 5 minutes or 10 minutes with controls being set up the same way for 10 minutes except no potential difference was applied. A recording of current passed for each specimen was made.
Each sample was then washed in water and dried. Samples from 10 the endosteal and periosteal surfaces were then taken by drilling the bone using a 3 mm low speed drill, in 10 positions on each surface, and crushed to a fine powder. To a known mass of each sample was added distilled water (2 ml) and the sample agitated using ultrasound. The sample was then centrifuged and the supernatant removed and the process repeated a further 2 times. The last wash was left to soak for 12 hours before centrifuging. The Fucloxacillin specimens were refrigerated to 4° C. during this to minimise degradation by hydrolysis. The supernatant solutions were then analysed for antibiotic content; for gentamicin using Fluorescence Polarisation Immuno Assay (Abbot Axsym Analyser); and for flucloxacillin the assays were performed using High Performance Liquid Chromatography (HPLC) technique. From the levels in the supernatant solutions, the antibiotic concentrations in the bone samples were calculated.
Initial work was carried out using the sheep tibia model of allograft tubular bone. For each control and iontophoretic group, 5 specimens were used. Samples from the endosteal and periosteal surfaces were processed separately.

[2] = Simultaneous iontophoresis of gentamicin and flucloxacillin in opposite directions across sheep tibia; settings: gentamicin 1% in medullary canal with anode, flucloxacillin 1% in beaker with cathode, 5 minutes
[3] = Iontophoresis of methylene blue across cortical bone discs or squares; parameters: species or system sheep
[4] = Tubular bone allograft model, methylene blue iontophoresis, sheep tibia
[5] = Control, no potential difference
[6] = iontophoresis, typical current 40 mamp
[7] = potential difference applied 1 Minute
[8] = potential difference applied 2 Minutes
[9] = potential difference applied 5 Minutes

Compound | movement of ions through sheep cortex ([1]; 100 volts) | time of iontophoresis after which high concentrations are achieved ([1]; sheep tibia) | penetration of the cortex [2] | penetration of the blue colour ([3]; control, no potential difference, methylene blue applied to one surface of cortical bone disc, after 20 minutes) | migration of methylene blue ([3]; potential difference applied) | Macroscopic penetration [4, 5] | Microscopic staining [4, 5] | time at which blue coloration of the periosteal surface was maximal [4, 6] | time at which blue coloration of the periosteal surface was noted [4, 6] | Macroscopic penetration [4, 7] | Microscopic staining [4, 7] | Macroscopic penetration [4, 8] | Microscopic staining [4, 8] | Macroscopic penetration [4, 9] | Microscopic staining [4, 9] | time to peak level, endosteal specimens ([1]; 100 volts, sheep tibia) | time to peak level, periosteal samples ([1]; 100 volts, sheep tibia)
Cc1onc(-c2c(F)cccc2Cl)c1C(=O)N[C@@H]1C(=O)N2[C@@H]1SC(C)(C)[C@@H]2C(=O)O [flucloxacillin, flucloxacillin Sodium] | moved through sheep cortex by the iontophoretic gradient | 1 min | levels in the periosteal samples only are elevated; also recorded: penetrates only the periosteal side |  |  |  |  |  |  |  |  |  |  |  |  |  | 
CN(C)c1ccc2nc3ccc(=[N+](C)C)cc-3sc2c1 [methylene blue] |  |  |  | very minimal penetration | migrate through the cortices | Minimal Penetration (Staining of | Staining on endosteal | ≤ 5 min | approximately 1.5 minutes | Penetration 1.5 mm | Uniform staining of matrix to | Penetration 3 mm | Uniform staining of matrix to | Penetration full thickness of | Complete uniform |  | 
gentamicin Sulphate | moved through sheep cortex by the iontophoretic gradient | 1 min | penetrates the full thickness of the cortex; also recorded: moves full thickness |  |  |  |  |  |  |  |  |  |  |  |  | ≤ 1 min | 5 min
